# Results reported in ChEMBL document CHEMBL1926667, “The synthesis of 2-nitroaryl-1,2,3,4-tetrahydroisoquinolines, nitro-substituted 5,6-dihydrobenzimidazo[2,1-a]isoquinoline N-oxides and related heterocycles as potential bioreducible substrates for the enzymes NAD(P)H: quinone oxidoreductase 1 and E. coli nitroreductase” (Bioorg Med Chem Lett, 2011).
# Experiments:
# Escherichia coli [1] = assay: Activation of Escherichia coli nitroreductase assessed as decrease in NADH concentration at 100 uM relative to CB-1954
# How it was run: (§1)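 Human NQO1 or E. coli NR reduction followed by the fall in NADH concentration over time; specific activity is the rate of reduction per enzyme at 37 °C. Relative values are the specific activity compared with CB-1954.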
# Escherichia coli [2] = assay: Activation of Escherichia coli nitroreductase assessed as specific activity per mg of protein at 100 uM by measuring decrease in NADH concentration; how it was run: as §1
# Escherichia coli [3] = assay: Activation of Escherichia coli nitroreductase assessed as decrease in substrate concentration at 100 uM by HPLC analysis relative to CB-1954
# How it was run: (§2)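 Reduction by human NQO1 or E. coli NR followed by the disappearance of substrate over time; specific activity is the rate of substrate reduction at 37 °C. Relative activity is the specific activity compared with CB-1954.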
# Escherichia coli [4] = assay: Activation of Escherichia coli nitroreductase assessed as specific activity per mg of protein at 100 uM by measuring decrease in substrate concentration by HPLC analysis; how it was run: as §2
SMILES,fold change (FC) (Escherichia coli [1]),Activity (Escherichia coli [2]) [µmol/min],fold change (FC) (Escherichia coli [3]),Activity (Escherichia coli [4]) [µmol/min]
O=C(O)c1cc([N+](=O)[O-])cc([N+](=O)[O-])c1N1CCc2ccc([N+](=O)[O-])cc2C1,7.4,14.8,–,–
NC(=O)c1cc(N2CCc3c(cccc3[N+](=O)[O-])C2)c([N+](=O)[O-])cc1[N+](=O)[O-],–,–,0.6,1.11
O=[N+]([O-])c1ccc(N2CCc3c(cccc3[N+](=O)[O-])C2)c([N+](=O)[O-])c1,–,–,0.2,0.44
NC(=O)c1cc(N2CCc3ccc([N+](=O)[O-])cc3C2)c([N+](=O)[O-])cc1[N+](=O)[O-],–,–,0.9,1.67
O=C(O)c1cc([N+](=O)[O-])cc([N+](=O)[O-])c1N1CCc2c(cccc2[N+](=O)[O-])C1,5.3,9.85,–,–
